The values that follow come from PMC3358236.

For data set [1], the target named is T1, ArcA (non-phosphorylated) (UniProt A0A0F6BBE4).
T1 sequence (looked up, limits assumed): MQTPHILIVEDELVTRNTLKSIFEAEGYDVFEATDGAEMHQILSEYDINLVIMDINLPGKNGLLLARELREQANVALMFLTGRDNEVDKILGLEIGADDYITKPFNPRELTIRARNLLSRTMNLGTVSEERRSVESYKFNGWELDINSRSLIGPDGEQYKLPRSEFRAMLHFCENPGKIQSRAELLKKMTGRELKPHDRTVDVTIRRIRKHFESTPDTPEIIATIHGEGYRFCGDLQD
Briefly: EMSA. The following applies: non-phosphorylated, non-specific, 100 mM Tris-Cl pH 7.4, 100 mM KCl, 10 mM MgCl2, 10% glycerol, 2 mM DTT, 20 min at 30 C, 20 or 60 ng PCR product, 4% native PAGE, ethidium bromide, recombinant protein, protein details: His-tag, probe letters rebuilt from the primers and the genome.

The target in data set [2] is ArcA-P (phosphorylated ArcA) (UniProt A0A0F6BBE4). Briefly: EMSA. The following applies: 100 mM Tris-Cl pH 7.4, 100 mM KCl, 10 mM MgCl2, 10% glycerol, 2 mM DTT, 20 min at 30 C, 20 or 60 ng PCR product, 4% native PAGE, ethidium bromide, recombinant protein, protein details: His-tag, probe letters rebuilt from the primers and the genome.
[3] abbreviates: negative control retarded only above 1200 nM.

The exact form of at least one protein or probe is not confirmed. For some assays here: No signal at the amounts used counts as a negative. For some assays here: The comparison behind a weaker result is the experiment's own reference, which may not be listed here. For some assays here: At least one verdict was read from the data and is not stated in words by the source. For some assays here: Protein sequences can lack the tags named with them.

On to “GAGCAGACAAATATTTGCATAGCGTGAATATGTCAAAATTGATCTGAATTCCTATAACCAGGATTTTCAATACAAGTTCTAAATTAATCTGGATC (double strand) [W3]”, for which the binding result was “binds more weakly” in data set [1] (setting [3]) and “no binding” in data set [2] (3-fold excess (60 ng), with W1).
On to “AATTTTTTCATACCCGCTCCATCGTTATGGTTATAAAAGCGTGATGAATATACCCACAATGAAGTAATAAGTGATCTAATA (double strand) [W5]”, for which the binding result in data set [2] (with W4) was “no binding”.
For the sequence “TATTAGATCACTTATTACTTCATTGTGGGTATATTCATCACGCTTTTATAACCATAACGATGGAGCGGGT (double strand) [W2]”, the binding result is recorded as “binds more weakly” in data set [1] (setting [3]) and “no binding” in data set [2] (3-fold excess (60 ng), with W1).
For the sequence “GAGCAGACAAATATTTGCATAGCGTGAATATGTCAAAATTGATCTGAATTCCTATAACCAGGATTTTCAATACAAGTTCTAAATTAATCTGGATCAATAAATGTTAAATTATAAGAACAAATGTGATCTGTATTAGATCACTTATTACTTCATTGTGGGTATATTCATCACGCTTTTATAACCATAACGATGGAGCGGGT (double strand) [W1]”, the binding result was “binds more weakly” in data set [1] (shift only above 1200 nM); “binds” in data set [2] (with 3-fold excess W2 and W3 present).
With “AATTTTTTCATACCCGCTCCATCGTTATGGTTATAAAAGCGTGATGAATATACCCACAATGAAGTAATAAGTGATCTAATACAGATCACATTTGTTCTTATAATTTAACATTTATTGATCCAGATTAATTTAGAACTTGTATTGAAAATCCTGGTTATAGG (double strand) [W4]”, the binding result in data set [2] (W5 present in the same reaction) was “binds”.
